Anti-infective test results gathered from many reports (values: NIAID ChemDB through PubChem).

All rows: whole-cell or culture tests; organism: Mycobacterium tuberculosis

A number after MIC or MFC names an inhibition level or a share of isolates.

smiles | strain or isolate | read-out | dose | read by | mutations | value
CCCCCCCCc1ccc(NC(=O)c2cc(Br)ccc2O)cc1 | My 331/88 | MIC |  |  |  | 2 µM
Clc1ccccc1/C=N\C1=NN2C(=CSC2c2ccccc2)S1 | H37Rv | MIC |  | resazurin |  | 6.25 µg/mL
Clc1ccc(Nc2cc3nc4ccccc4n(-c4ccc(Cl)c(Cl)c4)c-3cc2=NC2CCNCC2)cc1Cl | 2225 (SM INH RIF-RES) | MIC |  |  |  | 1 µg/mL
C=C1C(=O)[C@]23C[C@H]1CC[C@H]2[C@]1(C)CCC[C@](C)(COC(C)=O)[C@H]1C[C@H]3O | H37Ra | MIC |  | resazurin / absorbance |  | 3.125–6.25 µg/mL
CC(=O)c1ccc2c(ccc3ccccc32)c1 | H37Rv | MIC |  |  |  | 50 µg/mL
CCCCCCCCCCCCOC(=O)c1cc(O)c(O)c(O)c1 |  | MIC50 |  |  |  | 32 µg/mL
C=C1C[C@@]23CC[C@@H]4[C@@](C)(COC(C)=O)CCC[C@@]4(C)[C@@H]2[C@H](O)C[C@@H]1C3 | H37Ra | MIC |  | resazurin / absorbance |  | 25–50 µg/mL
CCCCc1ccc(NC(=O)c2cc(Br)ccc2O)cc1 | My 331/88 | MIC |  |  |  | 8 µM
N#CCCSC(=S)N1CCCC1=O | H37Rv | MIC bound |  | BACTEC |  | ≤128 µg/mL
CCOC(=O)c1csc(CCCCC(=O)O)c1N | H37Rv | MIC |  |  |  | >100 µg/mL
C=C1C(=O)[C@@]23CC[C@@H]4[C@@](C)(COC(C)=O)CCC[C@@]4(C)[C@@H]2[C@@H](O)C[C@@H]1C3 | H37Ra | MIC |  | resazurin / absorbance |  | >50 µg/mL
O=C(O)c1ccc(Sc2nnc(N3CCN(c4nc(N5CCN(c6ccccc6)CC5)c5ccccc5n4)CC3)o2)cc1 | H37Rv | inhibition | 100 µg/mL | agar / visual reading |  | 91%
CCCCCCCCCCCCCCCC(=O)O[C@@H]1[C@@H](C)[C@@]2(O)[C@@H](C=C(CO)C[C@]3(O)C(=O)C(C)=C[C@@H]23)[C@H]2[C@]1(OC(C)=O)[C@]2(C)CO | H37Rv | inhibition | 6.25 µg/mL | resazurin |  | -15%
CCCCCCCCC(=O)O | H37Rv | MIC |  |  |  | >100 µg/mL
Cc1c2ccncc2c(C)c2c1[nH]c1ccc(Br)cc12 | Jal 2287 | MIC |  | resazurin / fluorescence | MDR | >100 µM
Cc1c(CN2CCN(C)CC2)c(CN2CCN(C)CC2)c(-c2ccc(Cl)cc2)n1Cc1ccccc1 | 103471 | MIC |  |  |  | >64 µg/mL
COc1cc2c(c3oc(=O)c4c(c13)CCC4=O)C1C=COC1O2 |  | MIC90 |  |  |  | 64 µg/mL
Cc1ccc(-c2ccc(Cl)cc2)n1Cc1ccccc1 | H37Rv | MIC |  |  |  | <12.5 µg/mL
Cl.NCCc1ccc([N+](=O)[O-])cc1 | H37Rv | MIC |  |  |  | >100 µg/mL
c1ccc(CN(CCN(Cc2ccccn2)Cc2ccccn2)Cc2ccccn2)nc1 |  | MIC50 |  |  |  | 4 µg/mL
COC(=O)/C(=N\NC(=O)C[N+](C)(C)C)C(C(=O)OC)C(=O)C(=O)Nc1ccccc1C(N)=O.[Cl-] | H37Rv | inhibition | 12.5 µg/mL | BACTEC |  | 10%
CC(=O)c1c(C)[nH]c(C)c1C | H37Rv | MIC |  |  |  | >100 µg/mL
CN(C)c1ccc(C2SC=C3SC(/N=C\c4ccccc4)=NN32)cc1 | H37Rv | MIC |  | resazurin |  | 6.25 µg/mL
C=C1C[C@@]23CC[C@H]4[C@@](C)(CCC[C@]4(C)C(=O)O)[C@@H]2[C@@H](OC(C)=O)C[C@@H]1C3 | H37Ra | MIC |  | resazurin / absorbance |  | 25–50 µg/mL
CCCCCc1ccc(NC(=O)c2cc(Br)ccc2O)cc1 | My 331/88 | MIC |  |  |  | 8 µM
OC(c1cc(-c2ccc(Cl)cc2)nc2c(Cl)cccc12)C1CCCCN1 | H37Rv | inhibition | 6.25 µg/mL | resazurin |  | 100%
COc1ccccc1C1C(Cl)C(=O)N1C1=NN2C(=CSC2c2ccc(N(C)C)cc2)S1 | H37Rv | MIC |  | resazurin |  | 3.125 µg/mL
CCCCCCCCCCCCCCC(=O)Nc1ccccc1 | H37Rv | MIC |  |  |  | >100 µg/mL
CSc1ccc(-c2nn(-c3ccccc3)cc2C2CC(c3ccc(Cl)cc3)=NN2)cc1 | H37Rv | inhibition | 6.25 µg/mL | BACTEC |  | 36%
CSC(=N)c1c(O)cc(O)cc1O.Cl | H37Rv | MIC |  |  |  | >100 µg/mL
COc1ccc2cc3[n+](cc2c1OC)CCc1cc2c(cc1-3)OCO2 |  | MIC50 |  |  |  | 64 µg/mL
NC(=O)N/N=C(\CCC(=O)O)c1cccc([N+](=O)[O-])c1 | H37Rv | MIC |  |  |  | >100 µg/mL
Clc1cc2nc3[nH]c4ccccc4c3nc2cc1Cl | H37Rv | inhibition | 6.25 µg/mL | resazurin |  | -10%
Cc1ccc(NNC(=O)N2CCN(c3nc(N4CCN(c5ccccc5)CC4)c4ccccc4n3)CC2)cc1 | H37Rv | MIC |  | BACTEC / fluorescence |  | >6.25 µg/mL
CCCCCc1ccc(NC(=O)c2cc(Cl)ccc2O)cc1 | My 331/88 | MIC |  |  |  | 16 µM
COc1cccc2c1CCC1(O)OC(=O)CC21 | H37Rv | inhibition | 6.25 µg/mL | resazurin |  | 3%
CCCCCCn1c(C)ccc1C | H37Rv | EC50 |  |  |  | <12.5 µg/mL
O=c1c2c(oc3ccccc13)Oc1oc3ccccc3c(=O)c1C2c1ccc2c(c1)OCO2 | H37Rv | inhibition | 12.5 µg/mL | BACTEC |  | 47.85%
NNC(=O)c1ccncc1 | BND320 | MIC |  | resazurin / fluorescence | Drug-resistant | >100 µg/mL
CSc1ccc(C2=NN(C(C)=O)C(c3cn(-c4ccccc4)nc3-c3ccc(SC)cc3)C2)cc1 | H37Rv | inhibition | 6.25 µg/mL | BACTEC |  | 18%
CCCCCCn1c(C)c(CN2CCN(C)CC2)c(CN2CCN(C)CC2)c1-c1ccc(Cl)cc1 | 103471 | MIC |  |  |  | 8 µg/mL
COC12OCCN(CCO)C1=CC(=O)C1(C)N=NC(C)C12 | H37Rv | MIC bound |  | BACTEC |  | >12.5 µg/mL
NNC(=O)c1ccncc1 | H37Ra | MIC |  | resazurin / absorbance |  | 0.0062–0.012 µg/mL
CC(=O)NC[C@H]1CN(c2ccc(N3CCOCC3)c(F)c2)C(=O)O1 | Clinical isolate 71 A | MIC |  | resazurin | INH RIF resistant | 0.25 µg/mL
O=[N+]([O-])c1cc2cccc([N+](=O)[O-])c2o1 | H37Rv | inhibition | 6.25 µg/mL | resazurin |  | 100%
CC(C)(O)c1cccc(O)c1 | H37Rv | MIC |  |  |  | >100 µg/mL
O=C1Cc2ncccc2N1 | H37Rv | inhibition | 12.5 µg/mL | BACTEC |  | 13%
CC(C)N=c1cc2n(-c3ccc(Cl)cc3)c3ccccc3nc-2cc1Nc1ccc(Cl)cc1 | 2225 (SM INH RIF-RES) | MIC |  |  |  | 0.5 µg/mL
C/C(=N\Nc1ccc([N+](=O)[O-])cn1)c1ccccn1 | H37Rv | inhibition | 12.5 µg/mL | BACTEC |  | -25%
COc1cc(-c2ccc(N=Nc3ccc4c(S(=O)(=O)O)cc(S(=O)(=O)O)c(N)c4c3O)c(OC)c2)ccc1N=Nc1ccc2c(S(=O)(=O)O)cc(S(=O)(=O)O)c(N)c2c1O | H37Rv | MIC |  |  |  | >100 µg/mL
O=C(CCn1ccnc1[N+](=O)[O-])Nc1ccc(N(CCCl)CCCl)cc1 | H37Rv | MIC bound |  | resazurin |  | >6.25 µg/mL
CN1CCN(CCCN2c3ccccc3Sc3ccc(C(F)(F)F)cc32)CC1 |  | MIC90 |  |  |  | 8 µg/mL
Cc1cc(CN2CCN(C)CC2)c(C)n1Cc1ccccc1 | H37Rv | MIC |  |  |  | <12.5 µg/mL
CCN=c1cc2n(-c3ccc(Cl)cc3)c3ccccc3nc-2cc1Nc1ccc(Cl)cc1 | MTB11 (EMB-resistant) | MIC |  |  |  | 0.06 µg/mL
Nc1ccc([N+](=O)[O-])cc1 | H37Rv | MIC |  |  |  | >100 µg/mL
Cc1ccc2[nH]c3c(C)c4ccncc4c(C)c3c2c1 | H37Rv | MIC |  | resazurin / fluorescence |  | >100 µM
CSc1ccc(-c2nn(-c3ccccc3)cc2C2CC(c3ccc(C)cc3)=NN2)cc1 | H37Rv | inhibition | 6.25 µg/mL | BACTEC |  | 29%
O=C(c1ccc(Br)cc1)c1ccc(Br)cc1 | H37Rv | MIC |  |  |  | >100 µg/mL
C1=C2SC(/N=C\c3ccccc3)=NN2C(c2ccccc2)S1 | H37Rv | MIC |  | resazurin |  | 12.5 µg/mL
O=C1NOCC1N=Cc1cc(Cl)ccc1O | H37Rv | MIC |  | BACTEC |  | 12.5 µg/mL
O=C(NNc1ccccc1[N+](=O)[O-])N1CCN(c2nc(N3CCN(c4ccccc4)CC3)c3ccccc3n2)CC1 | H37Rv | inhibition | 12.5 µg/mL | agar / visual reading |  | 93%
CN(C)c1cc[c]([Sb]([c]2ccc(N(C)C)cc2)[c]2ccc(N(C)C)cc2)cc1 | H37Rv | MIC |  |  |  | >100 µg/mL
CN(C)CCCNC(=S)S | H37Rv | MIC |  | BACTEC |  | ≥12.5 µg/mL
O=C(c1ccccc1)c1ccc(NCc2ccccc2O)cc1 | H37Rv | MIC |  |  |  | >100 µg/mL
O=Cc1ccc(Sc2nnc(N3CCN(c4nc(N5CCN(c6ccccc6)CC5)c5ccccc5n4)CC3)o2)cc1 | H37Rv | inhibition | 6.25 µg/mL | BACTEC / fluorescence |  | 0%
CC(=O)NC[C@H]1CN(c2ccc(N3CCOCC3)c(F)c2)C(=O)O1 |  | MIC90 |  |  |  | 0.25 µg/mL
CC(C)=CCC1=C(O)[C@@](O)(CC=C(C)C)C(=O)C(C(=O)CC(C)C)=C1O | H37Rv | inhibition | 12.8 µg/mL | BACTEC |  | 22%
Cc1ccc(C)n1C1CCCCC1 | H37Rv | MIC |  |  |  | <12.5 µg/mL
COc1ccc(/C=N\C2=NN3C(=CSC3c3ccc(N(C)C)cc3)S2)cc1 | H37Rv | MIC |  | resazurin |  | 6.25 µg/mL
COc1ccccc1NC(=S)Nc1cccc(C)n1 | H37Rv | inhibition | 6.25 µg/mL | BACTEC |  | 40%
Oc1cc(O)cc(O)c1 | H37Rv | MIC |  |  |  | 100 µg/mL
COC(=O)[C@H]1[C@H]2C[C@H]3c4[nH]c5ccccc5c4CCN3C[C@@H]2CC[C@@H]1O | H37Rv | inhibition | 12.5 µg/mL | BACTEC |  | 5%
O=[N+]([O-])c1cccc(Sc2nnc(N3CCN(c4nc(N5CCN(c6ccccc6)CC5)c5ccccc5n4)CC3)o2)c1 | H37Rv | MIC |  | BACTEC / fluorescence |  | >6.25 µg/mL
CCCCCCn1c(-c2ccc(Cl)cc2)cc(CN2CCN(C)CC2)c1C | 103471 | MIC |  |  |  | 8 µg/mL
CC(=O)Nc1ccccc1C(N)=S | H37Rv | MIC |  |  |  | >100 µg/mL
CN(C)c1ccc(C2SC=C3SC(N4C(=O)C(Cl)C4c4ccccc4)=NN32)cc1 | H37Rv | MIC |  | resazurin |  | 6.25 µg/mL
COc1ccc(N)c2c1oc1ccccc12 | H37Rv | MIC |  |  |  | 50 µg/mL
CC1(C23CC4CC(CC(C4)C2)C3)n2c(=O)n(-c3ccccc3)c(=O)n2C1(C)C12CC3CC(CC(C3)C1)C2 | H37Rv | inhibition | 6.25 µg/mL | resazurin |  | -2%
C=C1C(=O)[C@@]23[C@H](O)C[C@@H]4C(C)(C)CC[C@@H](OC(C)=O)[C@@]4(C)[C@@H]2CC[C@@H]1[C@H]3OC(C)=O | H37Ra | MIC |  | resazurin / absorbance |  | 3.125–6.25 µg/mL
CSc1ccc(-c2nn(-c3ccccc3)cc2C2CC(c3ccc(N)cc3)=NN2C(C)=O)cc1 | H37Rv | inhibition | 6.25 µg/mL | BACTEC |  | 56%
CC(C)C1C=C2CCC3C(C)(C(=O)O)CCCC3(C)C2CC1 | H37Rv | MIC |  | BACTEC |  | 128 µg/mL
Nc1ccc(I)cc1I | H37Rv | MIC |  |  |  | >100 µg/mL
Cc1c(CN2CCN(C)CC2)cc(-c2ccc(Cl)cc2)n1C1CCCCC1 | H37Rv | MIC |  |  |  | <12.5 µg/mL
c1csc(CCc2cccs2)c1 | H37Rv | MIC |  |  |  | >100 µg/mL
Cc1ccc2[nH]c3c(C)c4cc[n+](C)cc4c(C)c3c2c1 | Jal 2287 | MIC |  | resazurin / fluorescence | MDR | 12.5 µM
Nc1ccc2c(c1)[nH]c(=O)c1cc(Cl)c(Cl)cc12 | H37Rv | MIC bound |  | resazurin |  | >6.25 µg/mL
O=c1[nH]c(=O)[nH]c(=O)[nH]1 | H37Rv | MIC |  |  |  | >100 µg/mL

Inhibition is in % at the dose shown (toxicity tests: loss of growth or viability). An empty or dashed field is not shown. ECn: concentration that inhibits the pathogen or its effect by n%. MIC bound: limit read from a one-dose screen. Two numbers with a dash give a range or band. Rows are shuffled and stem from different studies.